Measured values from several laboratories, pooled; numbers as filed in NIAID ChemDB.

All rows: whole-cell or culture tests; species: Mycobacterium tuberculosis

MIC bound: limit read from a one-dose screen.

structure,changes,endpoint,cells,dose,strain,setting,method,result
NS(=O)(=O)OCCCCCCCOS(N)(=O)=O,-,inhibition,-,6.25 µg/mL,H37Rv,-,resazurin,36%
CCC1Cn2cc([N+](=O)[O-])nc2O1,-,MIC,-,-,H37Rv-T2-3547 (PA-824-resistant),-,-,0.4 µM
CO[C@H]1/C=C/O[C@@]2(C)Oc3c(C)c(O)c4c(O)c(c(/C=N/N5CCN(C)CC5)c(O)c4c3C2=O)NC(=O)/C(C)=C\C=C\[C@H](C)[C@H](O)[C@@H](C)[C@@H](O)[C@@H](C)[C@H](OC(C)=O)[C@@H]1C,-,MIC,-,-,9449/2007,-,-,>9.7 µM
CC(CN1c2ccccc2Sc2ccccc21)N(C)CCO,-,MIC bound,-,-,H37Rv,-,BACTEC,>12.5 µg/mL
CCCCOc1ccc(NC(=O)OCCN2CCOCC2)cc1,-,MIC,-,-,My 331/88,-,-,250 µM
O=C(NNCc1ccccc1F)c1ccncc1,-,EC90,Macrophages,-,Erdman,inside macrophages,colony count,0.28 µg/mL
NC(=O)c1cnccn1,-,MIC,-,-,Isolate 11041 monodrug-resistant,-,-,>300 µg/mL
O=[N+]([O-])c1cn2c(n1)OC[C@@H](OCc1ccc(OC(F)(F)F)cc1)C2,-,MIC,-,-,H37Rv-5A1 (PA-824-resistant),-,-,>100 µM
Cc1ccc(Cn2nnc(-c3cc([N+](=O)[O-])cc([N+](=O)[O-])c3)n2)cc1,-,MIC,-,-,9449/2007,14 d,-,0.125 µM
NNC(=O)c1ccncc1,-,MIC,-,-,7S,-,-,0.1 µg/mL
C=CCCCC#CCC#CCCCCCCCC(=O)NN,-,MIC,-,-,-,-,-,>200 µg/mL
CO[C@H]1/C=C/O[C@@]2(C)Oc3c(C)c(O)c4c(O)c(c(/C=N/N5CCN(C)CC5)c(O)c4c3C2=O)NC(=O)/C(C)=C\C=C\[C@H](C)[C@H](O)[C@@H](C)[C@@H](O)[C@@H](C)[C@H](OC(C)=O)[C@@H]1C,-,MIC,-,-,Clinical isolate 16116,-,broth dilution,≤0.1 µM
CCCCCCCCCCOc1ccc(NC(=O)OCCN(C)C)cc1,-,MIC,-,-,My 331/88,-,-,8 µM
O=C(CNC(=O)c1ccccc1)N/N=C/c1ccccc1,-,MIC,-,-,-,-,-,>200 µg/mL
O=C(N/N=C/c1cccc(C(F)(F)F)c1)c1ccncc1,-,MBC,-,-,Rifampicin-resistant,-,-,0.05 µg/mL
CCCCCCCCCN1C(=O)CC(C)C1=O,-,MIC,-,-,H37Ra,-,-,≤20 µg/mL
CCOc1cc2oc3cc(OCC)c(C(C)=O)c(CCC(C)C)c3c(=O)c2c(O)c1CCC(C)C,-,MIC,-,-,H37Ra,-,resazurin,>200 µg/mL
CN[C@@H]1[C@@H](O)[C@@H](O[C@@H]2[C@@H](O)[C@H](O[C@H]3O[C@H](CN)CC[C@H]3N)[C@@H](N)C[C@H]2N)OC[C@]1(C)O,-,MIC,-,-,7357/1998,-,-,1.05 µM
CC(=O)c1c(CN2CCN(c3ccc(Cl)cc3)CC2)n([O-])c2ccccc2[n+]1=O,-,inhibition,-,6.25 µg/mL,H37Rv,-,BACTEC,0%
CC1COc2c(N3CCN(C)CC3)c(F)cc3c(=O)c(C(=O)O)cn1c23,-,MIC50,-,-,Drug-resistant,-,-,0.5 µg/mL
NNC(=O)c1ccncc1,Rifampicin- and isoniazid-resistant,MIC,-,-,Clinical isolate 18460,-,broth dilution,≤10 µM
Cc1ccc(-n2cc(-c3ccc(Cl)cc3)c(C#N)c2N)cc1,-,MIC bound,-,-,H37Rv,-,BACTEC,≤12.5 µg/mL
CC1(C)S[C@@H]2[C@H](NC(=O)[C@H](N)c3ccccc3)C(=O)N2[C@H]1C(=O)O,-,MIC,-,-,1694,-,-,92 µM
O=C(CNC(=O)Nc1n[nH]c(=S)s1)N/N=C/c1ccc2c(c1)OCO2,-,MIC bound,-,-,H37Rv,-,BACTEC,>12.5 µg/mL
CCCCCCCCCN1C(=O)CC(SCCNC(=O)c2ccc(OCCCCCC)cc2)C1=O,-,MIC,-,-,H37Ra,-,-,≤20 µg/mL
NNC(=O)CNC(=O)c1ccccc1,-,MIC,-,-,-,-,-,100 µg/mL
NCC[C@H](O)C(=O)N[C@@H]1C[C@H](N)[C@@H](O[C@H]2O[C@H](CN)[C@@H](O)[C@H](O)[C@H]2O)[C@H](O)[C@H]1O[C@H]1O[C@H](CO)[C@@H](O)[C@H](N)[C@H]1O,-,MIC,-,-,9S,-,-,2.5 µg/mL
O=C(N/N=C/c1cccc(F)c1)c1ccncc1,-,MIC,-,-,Isoniazid-resistant,-,-,>6.4 µg/mL
CCOc1cc2oc3cc(O)c(OC)c(CCC(C)C)c3c(=O)c2c(O)c1CCC(C)C,-,MIC,-,-,H37Ra,-,resazurin,12.5 µg/mL
NC1CCN(c2c(F)cc3c(=O)c(C(=O)O)cn(C4CC4)c3c2Cl)C1,-,MBC,-,-,ATCC 35826,-,-,0.125 µg/mL
C/C(=N\NC(=O)c1ccncc1)c1ccc(F)cc1,-,MBC,-,-,Isoniazid-resistant,-,-,>1.6 µg/mL
CCCCCCCCCOc1cccc(NC(=O)OCCN2CCOCC2)c1,-,MIC,-,-,My 331/88,-,-,32 µM
Cn1cc(N)cc1C(=O)Nc1cc(C(=O)Nc2ccc(S(=O)(=O)O)c3cc(S(=O)(=O)O)ccc23)n(C)c1,-,inhibition,-,12.5 µg/mL,H37Rv,-,BACTEC,0%
COc1cc2oc3cc(OC)c(CCC(C)C)c(O)c3c(=O)c2c(CCC(C)C)c1O,-,MIC,-,-,H37Ra,-,resazurin,>200 µg/mL
CN(C)C(=S)SCN1C(=O)c2ccccc2C1=O,-,MIC,-,-,CS-R,-,-,1.6 µg/mL
CCCCCCCCNC1(C)CC(=O)N(CCCCCCCC)C1=O,-,MIC,-,-,Clinical isolate (isoniazid-resistant),-,-,≤20 µg/mL
NNC(=O)c1ccccc1N,-,MIC,-,-,-,-,-,200 µg/mL
CCCCCCCCNC1CC(=O)NC1=O,-,MIC,-,-,Clinical isolate (isoniazid-resistant),-,-,≤20 µg/mL
COc1ccc(N2CCN(Cc3c(C(C)=O)[n+](=O)c4cc(C)c(C)cc4n3[O-])CC2)cc1,-,inhibition,-,6.25 µg/mL,H37Rv,-,BACTEC,0%
CC(=O)NNS(=O)(=O)c1ccccc1,-,MIC,-,-,-,-,-,>40 µg/mL
CCOC(=O)C1Cc2c(n(C3CCCCC3)c(=O)n(C)c2=O)OC1c1ccccc1,-,MIC bound,-,-,H37Rv,-,BACTEC,>12.5 µg/mL
O=C(N/N=C/c1ccccc1F)c1ccncc1,-,MBC,-,-,Isoniazid-resistant,-,-,>1.6 µg/mL
CN1c2ccc(C3N(C(=O)C(F)(F)F)C=CN3C(=O)C(F)(F)F)cc2Sc2cc(C3N(C(=O)C(F)(F)F)C=CN3C(=O)C(F)(F)F)ccc21,-,MIC,-,-,H37Rv,-,-,>12.5 µg/mL
CCCCCCCOc1ccc(NC(=O)OCCN(C)C)cc1,-,MIC,-,-,My 331/88,-,-,8 µM
Cn1c(=O)c(=O)n(C)c2nc3ccccc3nc21,-,inhibition,-,12.5 µg/mL,H37Rv,-,BACTEC,0%
COc1ccc2c(c1)[n+](=O)c(C(C)=O)c(C)n2[O-],-,MIC,-,-,H37Rv,inside macrophages,-,1.56 µg/mL
O=C(NNCc1ccc(Cl)c(Cl)c1)c1ccncc1,-,MIC,-,-,H37Rv,-,-,1.6 µg/mL
CCCCCCCCCOc1ccccc1NC(=O)OCCN1CCCCC1,-,MIC,-,-,My 331/88,-,-,16 µM
COc1c2occc2c(OC)c2c(=O)cc(/C=C/c3ccc4ccccc4n3)oc12,-,inhibition,-,12.5 µg/mL,H37Rv,-,BACTEC,-19%
COc1c(O)cc2oc3cc(O)c(CCC(C)C)c(O)c3c(=O)c2c1CCC(C)C,MDR,MIC,-,-,M-4,-,resazurin,1.56 µg/mL
NNC(=O)c1ccncc1,-,MIC,-,-,INH-r,-,resazurin,>100 µg/mL
CO/C(C)=C1/NC(=O)[C@H]([C@@H](C)O)NC(=O)c2csc(n2)-c2cc(O)c(-c3nc(C(=O)NCc4cnn(C)c4)cs3)nc2-c2csc(n2)[C@@H]2COC(=O)c3c4c5c(cccc5n3O)COC(=O)[C@@H](O[C@H]3C[C@](C)(O)[C@H](N(C)C)[C@H](C)O3)[C@@H](OC4)[C@H](NC(=O)c3csc1n3)c1nc(cs1)C(=O)N2,-,MIC,-,-,H37Rv,-,broth dilution,≤1 µM
CC[C@H]1OC(=O)[C@H](C)[C@@H](O[C@H]2C[C@@](C)(OC)[C@@H](O)[C@H](C)O2)[C@H](C)[C@@H](O[C@@H]2O[C@H](C)C[C@H](N(C)C)[C@H]2O)[C@](C)(O)C[C@@H](C)C(=O)[C@H](C)[C@@H](O)[C@]1(C)O,-,MBC,-,-,ATCC 35826,-,-,>8 µg/mL
CC(NNC(=O)c1ccncc1)c1ccc(Cl)c(Cl)c1,-,MIC,-,-,Ethionamide-resistant,-,-,>50 µg/mL
Nc1ccc2nc3ccc(=O)cc-3n(-c3ccccc3)c2c1,-,MIC,-,-,H37Rv,-,BACTEC,6.25 µg/mL
COc1cc2oc3cc(OC(C)=O)c(CCC(C)C)c(O)c3c(=O)c2c(CCC(C)C)c1C(C)=O,-,MIC,-,-,H37Ra,-,resazurin,100 µg/mL
NNC(=O)c1ccccc1Nc1ccccc1,-,MIC,-,-,-,-,-,>40 µg/mL
Cc1cc(=O)oc2c3c(ccc12)OC(c1ccc(Br)cc1)CC3=O,-,MIC bound,-,-,H37Rv,-,BACTEC,≤12.5 µg/mL
Cc1cc2c(cc1C)[n+](=O)c(C(=O)c1ccccc1)c(C)n2[O-],-,EC50,-,-,H37Rv,-,BACTEC,<6.25 µg/mL
COC1OC2COc3ccccc3OC2C2N=C(N)SC12,-,inhibition,-,12.5 µg/mL,H37Rv,-,BACTEC,0%
O=C(NNCc1cccc(C(F)(F)F)c1)c1ccncc1,-,MIC,-,-,Erdman,-,-,>6.25 µg/mL
C=C(NC(=O)c1csc(-c2nc3c(cc2O)-c2nc(cs2)C(=O)N[C@@H]([C@@H](C)O)C(=O)N/C(=C(\C)OC)c2nc(cs2)C(=O)N[C@@H]2c4nc(cs4)C(=O)N[C@@H](COC(=O)c4c5c6c(cccc6n4O)COC(=O)[C@@H](O[C@H]4C[C@](C)(O)[C@H](N(C)C)[C@H](C)O4)[C@H]2OC5)c2nc-3cs2)n1)C(N)=O,-,MIC,-,-,H37Rv,-,broth dilution,≤2.5 µM
CC(=O)c1c(OCCCCBr)cc2oc3cc(O)c(CCC(C)C)c(O)c3c(=O)c2c1CCC(C)C,-,MIC,-,-,H37Ra,-,resazurin,12.5 µg/mL
Cc1nc2c(n1C)C(=O)c1nc(CBr)[nH]c(=O)c1C2=O,-,inhibition,-,12.5 µg/mL,H37Rv,-,BACTEC,0%
CCCOc1cc2oc3cc(O)c(CCC(C)C)c(O)c3c(=O)c2c(CCC(C)C)c1OC,-,MIC,-,-,H37Ra,-,resazurin,0.78 µg/mL
O=NNc1ccc(F)cn1,-,MIC,-,-,H37Rv,-,BACTEC,≥12.5 µg/mL
O=c1[nH][nH]c(=O)c2ccccc12,-,MIC,-,-,-,-,-,200 µg/mL
N[C@H](C(=O)O)[C@H]1ON=C(Cl)[C@@H]1O,-,MIC,-,-,H37Rv,-,-,12.5 µg/mL
CC(C)=NNC(=O)c1ccccc1Cl,-,MIC,-,-,-,-,-,100 µg/mL
CC(=O)c1c(O)c(C)c(O)c2c1OC1=CC(=O)C(C(C)=O)C(=O)C12C,-,MIC,-,-,PAS-R,-,-,12.5 µg/mL
NC1CCN(c2nc3c(cc2F)c(=O)c(C(=O)O)cn3-c2ccc(F)cc2F)C1,-,MBC,-,-,ATCC 35822,-,-,>8 µg/mL
CN(C)CC(C)(C)CN1c2ccccc2Sc2ccccc21.Cl,-,MIC bound,-,-,H37Rv,-,BACTEC,>12.5 µg/mL
CC1CN(c2cc3c(cc2F)c(=O)c(C(=O)O)cn3-c2ccc(F)cc2F)CCN1,-,MIC,-,-,ATCC 35826,-,-,0.5 µg/mL
CO/C(C)=C1/NC(=O)[C@H]([C@@H](C)O)NC(=O)c2csc(n2)-c2cc(O)c(-c3nc(C(=O)NCCCN4CCOCC4)cs3)nc2-c2csc(n2)[C@@H]2COC(=O)c3c4c5c(cccc5n3O)COC(=O)[C@@H](O[C@H]3C[C@](C)(O)[C@H](N(C)C)[C@H](C)O3)[C@@H](OC4)[C@H](NC(=O)c3csc1n3)c1nc(cs1)C(=O)N2,Rifampicin- isoniazid- moxifloxacin-resistant,MIC,-,-,Clinical isolate 6134,-,broth dilution,≤2.5 µM
CC(=O)c1c(CN2CCN(c3ccc(Cl)cc3)CC2)n([O-])c2cc(Cl)c(Cl)cc2[n+]1=O,-,EC50,-,-,H37Rv,-,BACTEC,>6.25 µg/mL
CO[C@H]1/C=C/O[C@@]2(C)Oc3c(C)c(O)c4c(O)c(c(/C=N/N5CCN(C)CC5)c(O)c4c3C2=O)NC(=O)/C(C)=C\C=C\[C@H](C)[C@H](O)[C@@H](C)[C@@H](O)[C@@H](C)[C@H](OC(C)=O)[C@@H]1C,-,MIC,-,-,M22,-,resazurin,>2 µg/mL
Cc1c2oc3c(C)ccc(C(=O)NC(C(N)=O)C(C)O)c3nc-2c(C(=O)NC(C(N)=O)C(C)O)c(N)c1=O,-,MIC bound,-,-,H37Rv,-,BACTEC,>12.5 µg/mL
C/C(=N\N=C(/C)c1ccccc1)c1ccccc1,-,MIC,-,-,-,-,-,>200 µg/mL
C=C(C)[C@@H]1CC[C@]2(C(=O)O)CC[C@]3(C)[C@H](CC[C@@H]4[C@@]5(C)CC[C@H](O)C(C)(C)[C@@H]5CC[C@]43C)[C@@H]12,-,MIC bound,-,-,H37Rv,-,BACTEC,>6.25 µg/mL
O=C(NNCc1ccccc1)c1ccncc1,-,MBC,-,-,H37Rv,-,-,3.13 µg/mL

For reference, 4 entries again:

structure | changes | endpoint | cells | dose | strain | setting | method | result
O=C(NNCc1cccc(C(F)(F)F)c1)c1ccncc1 | - | MIC | - | - | Erdman | - | - | >6.25 µg/mL
CC1CN(c2cc3c(cc2F)c(=O)c(C(=O)O)cn3-c2ccc(F)cc2F)CCN1 | - | MIC | - | - | ATCC 35826 | - | - | 0.5 µg/mL
COc1cc2oc3cc(OC)c(CCC(C)C)c(O)c3c(=O)c2c(CCC(C)C)c1O | - | MIC | - | - | H37Ra | - | resazurin | >200 µg/mL
Cc1ccc(-n2cc(-c3ccc(Cl)cc3)c(C#N)c2N)cc1 | - | MIC bound | - | - | H37Rv | - | BACTEC | ≤12.5 µg/mL

Percent inhibition refers to the dose given; in toxicity tests it is the harm to the cells. A number after MIC or MFC names an inhibition level or a share of isolates. ECn is the concentration giving n% inhibition of infection, replication or growth. Lines come from different laboratories, so protocols vary. An empty or dashed field is not shown.